Results of unrelated studies side by side (data: NIAID ChemDB).

Common to all: growth or infection tests; organism: Candida albicans; measure: MIC

Blank or dashed fields: not listed here. Neighbouring rows are from separate reports.

compound,strain,read by,result
COC(=O)[C@@]1(C)CCC[C@]2(C)C3CC(=O)O[C@@]3(C)C=C[C@@H]12,CECT 1394,,>100 µg/mL
CCN1CC(C)(C)OC(=O)C1CC(=O)NCC1CCCCC1,SC5314,broth dilution,>25 µg/mL
Cc1ccccc1NC(=S)NNC(=O)c1cc2ccccc2cn1,ATCC 10231,agar,50 µg/mL
CC1=C[C@H](OC(=O)c2ccc(O)cc2)C2[C@](C)(CC[C@@]2(O)C(C)C)CC1=O,SC5314,,>50 µg/mL
N#Cc1c(-c2ccc(O)cc2)cc(-c2cc3cc(F)ccc3oc2=O)nc1NS(=O)(=O)c1ccccc1,MTCC 227,turbidity,250 µg/mL
O=C(NNC(=S)Nc1ccc(F)cc1)c1cc2ccccc2[nH]1,ATCC 90028,agar,>400 µg/mL
COc1cc(NC(C)CCCNC(=O)[C@H](CCCN=C(N)N)NC(=O)[C@@H](N)CCCN=C(N)N)c2ncccc2c1,,broth dilution,>20 µg/mL
Cc1ccc(NC(=O)CCN2C(=O)S/C(=C\c3ccccc3)C2=O)c(Cl)c1,,,25 µg/mL
CCN1CC(C)(C)OC(=O)C1CC(=O)Nc1ccncc1,SC5314,broth dilution,>50 µg/mL
Cc1ccc(Cl)c(NC(=O)CCN2C(=O)S/C(=C\c3cccc(O)c3)C2=O)c1,,,12.5 µg/mL
CCOC(=O)c1sc(SC)cc1-c1ccc(C)cc1,SKF,,>100 µg/mL
Cc1nnsc1C(=O)NNC(=S)Nc1ccccc1Br,ATCC 10231,agar,400 µg/mL
O=C1/C(=C/c2ccccc2O)COc2ccccc21,,,12.5 µg/mL
CCn1cc(C(=O)O)c(=O)c2cc(F)c(N3CCN(CN4C(=O)C(=Nc5ccc(S(=O)(=O)Nc6ncnc(OC)c6OC)cc5)c5ccccc54)CC3)cc21,,,156 µg/mL
CC1=C[C@H](OC(=O)c2ccccc2)C2[C@](C)(CC[C@@]2(O)C(C)C)C/C1=C/CO,SC5314,,>50 µg/mL
COc1ccccc1NC(=S)NNC(=O)c1cc2ccccc2cn1,ATCC 90028,agar,25 µg/mL
CCC(O)/C=C/C=C/C=C/C(=O)OC[C@H]1O[C@@H](O[C@H]2[C@H](OC(=O)/C=C/C=C/CC(O)/C(C)=C/C=C/CCC(C)CC)[C@@H](O)[C@@]3(OCc4cc(O)cc(O)c43)O[C@@H]2CO)[C@H](O)[C@@H](O)[C@H]1O,IAM4888,,1.6 µg/mL
O=C(c1ccccc1)N1CCC(n2cc(-c3nc(-c4ccccc4)n[nH]3)nn2)CC1,,agar,100 µg/mL
O=C1/C(=C/c2ccc(Cl)cc2)CCc2ccccc21,,,12.5 µg/mL
OCCNc1nnc2c(cnc3ccccc32)n1,VM-71,,30 µg/mL
CCn1cc(C(=O)O)c(=O)c2cc(F)c(N3CCN(CN4C(=O)C(=Nc5ccc(S(=O)(=O)Nc6ncccn6)cc5)c5cc(Br)ccc54)CC3)cc21,,,156 µg/mL
CCCC[C@@H](C)/C=C(C)/C=C(\C)C(=O)N/C(=C/[C@@](C)(O)/C=C/C=C/C=C/C(=O)NC1=C(O)CCC1=O)C(=O)[C@@H]1CO1,2,broth dilution,13 µM
CC(C)c1ccc(NC(=O)CC2C(=O)OC(C)(C)CN2c2ccccc2)cc1,SC5314,broth dilution,>50 µg/mL
C=CCNC(=S)NNC(=O)Cc1csc2nc(-c3ccc(Br)cc3)cn12,ATCC 10231,,>32 µg/mL
CSc1cc(-c2ccc(Br)cc2)c(C(=O)O)s1,SKF,,>100 µg/mL
C[C@@]12CCC[C@]3(C)C4CC(=O)OCC4=CC(OC1=O)[C@@H]23,CECT 1394,,>100 µg/mL
O[C@](Cn1cncn1)(Cn1cnc(/C=C/c2ccc(OCC(F)(F)C(F)F)cc2)n1)c1ccc(F)cc1F,Isolate O15-2,,1 µg/mL
CCn1cc(C(=O)O)c(=O)c2cc(F)c(N3CCNCC3)cc21,,,312.5 µg/mL
CO[C@@H]1[C@H]2OC(C)(C)O[C@H]2O[C@@H]1C1=NOC(C(C)=O)C1,,,>50 µg/mL
Cc1c(O)cccc1C(=O)N[C@@H](CSc1ccccc1)[C@H](O)CN1C[C@H]2CCCC[C@H]2C[C@H]1C(=O)NC(C)(C)C,I152A,,64 µg/mL
CS(=O)(=O)N1CCC(n2cc(-c3nc(-c4ccc(Cl)cc4)n[nH]3)nn2)CC1,,agar,20 µg/mL
O=C(CCN1C(=O)S/C(=C\c2ccccc2Br)C1=O)Nc1ccccc1O,,,12.5 µg/mL
CCOC1CC([C@H]2O[C@@H]3OC(C)(C)O[C@@H]3[C@H]2OCc2ccccc2)=NO1,,,>50 µg/mL
CC1=C[C@H](OC(=O)c2ccccc2)C2[C@](C)(CC[C@@]2(O)C(C)C)CC1=O,SC5314,,>50 µg/mL
CC1=CC2OC(=O)[C@@]3(C)CCC[C@@](C)([C@@H]23)[C@H]1CCO,CECT 1394,,>100 µg/mL
CN1CCC(n2cc(-c3nc(-c4ccccc4)n[nH]3)nn2)CC1,,agar,30 µg/mL
COc1cc(NC(C)CCCNC(=O)CCC(NC(=O)[C@@H](N)CCCN=C(N)N)C(=O)O)c2nc(C(C)(C)C)ccc2c1,,broth dilution,>20 µg/mL
CCOC(=O)c1sc(SC)cc1-c1ccc(-c2cccnc2)cc1,SKF,,50 µg/mL
O=C(CCN1C(=O)S/C(=C\c2ccc(O)cc2O)C1=O)Nc1ccccc1O,,,50 µg/mL
CC1(C)O[C@H]2[C@@H](O1)[C@@H](C1=NOC(CO)C1)O[C@@H]1OC(C)(C)O[C@@H]12,,,>50 µg/mL
CC(C)(C)OC(=O)N1CCC(n2cc(-c3nc(-c4ccccc4)n[nH]3)nn2)CC1,,agar,160 µg/mL
CCN1CC(C)(C)OC(=O)C1CC(=O)Nc1cccnc1,SC5314,broth dilution,>50 µg/mL
C/C=C(\C)C(=O)O[C@@H]1C=C(C)CC[C@]2(O)[C@@H](C(C)C)CC(=O)[C@]12C,SC5314,,>50 µg/mL
C[C@H]1[C@H](O)[C@@H](C)/C=C/C=C/C=C/C=C/C=C/C=C/C=C/[C@H](O[C@@H]2O[C@H](C)[C@@H](O)[C@H](N)[C@@H]2O)C[C@@H]2O[C@](O)(C[C@@H](O)C[C@@H](O)CC[C@H](O)[C@@H](O)C[C@@H](O)CC(=O)O[C@H]1C)C[C@H](O)[C@H]2C(=O)O,ATCC 64549,,0.25 µg/mL
Cc1cc(C)cc(/C=C2\SC(=O)N(CCC(=O)Nc3ccccc3O)C2=O)c1,,,25 µg/mL
CN[C@@H]1[C@H](O[C@@H]2OC[C@@H](O)[C@H](O)[C@H]2O)[C@@H](O)[C@H](O[C@H]2c3cc(C)c(C(=O)NCC(=O)O)c(O)c3-c3c(cc4c(c3O)C(=O)c3cc(OC)cc(O)c3C4=O)[C@@H]2O)O[C@@H]1CO,A9540,,6.3 µg/mL
Cc1ccc(NC(=S)NNC(=O)Cc2csc3nc(-c4ccc(Br)cc4)cn23)cc1,ATCC 10231,,>32 µg/mL
CC(=C/C=C/C(=O)O)/C=C/C=C(\C)C(O)C(C)C(=O)O[C@H]1C[C@H](C)C=C2C=C[C@@]3(C)O[C@@H](O)CC(=O)[C@]3(C)[C@H]21,ATCC 62376,,3.12 µg/mL
CCOC(=O)c1sc(SC)cc1-c1ccc(Cl)cc1,SKF,,>100 µg/mL
C=C1CC[C@@H]2[C@](C)(CCC[C@]2(C)C(=O)OC)[C@H]1CC(=O)OC,CECT 1394,,>100 µg/mL
CCn1cc(C(=O)O)c(=O)c2cc(F)c(N3CCN(CN4C(=O)C(=Nc5ccc(S(=O)(=O)Nc6ncccn6)cc5)c5ccccc54)CC3)cc21,,,156 µg/mL
Cc1ccc(C(C)C)c(O)c1,H37,,0.16 µg/mL
CC(C)(O)c1cn(-c2ccc(Cl)cc2)nn1,URM 4609,broth dilution,128 µg/mL
Clc1nnc2c(cnc3ccccc32)n1,VM-81,,≤10 µg/mL
COc1cc(NC(C)CCCNC(=O)[C@@H](CCCN=C(N)N)NC(=O)[C@H](N)CCCN=C(N)N)c2ncccc2c1,,broth dilution,>20 µg/mL
CCOC(=O)c1sc(SC)c(C#N)c1O,SKF,,>100 µg/mL
CC1(C)O[C@H]2[C@@H](O1)[C@@H](C1=NOC(Cc3ccc(O)cc3)C1)O[C@@H]1OC(C)(C)O[C@@H]12,,,>50 µg/mL
COC(=O)[C@@]1(C)CCC[C@]2(C)C3=CC(=O)OCC3C=C[C@@H]12,CECT 1394,,<6.25 µg/mL
COc1ccccc1/C=C1\CSc2ccccc2C1=O,,,25 µg/mL
O=C(Cc1csc2nc(-c3ccc(Br)cc3)cn12)N/N=C1\SCC(=O)N1c1ccc([N+](=O)[O-])cc1,ATCC 10231,,32 µg/mL
COc1ccc(-c2cc(-c3cc4cc(F)ccc4oc3=O)nc(NS(=O)(=O)c3ccccc3)c2C#N)cc1,MTCC 227,turbidity,500 µg/mL
CS(=O)(=O)N1CCC(n2cc(-c3nc(-c4ccccc4)n[nH]3)nn2)CC1,,agar,20 µg/mL
CCn1cc(C(=O)O)c(=O)c2cc(F)c(N3CCN(CN4C(=O)C(=Nc5ccc(S(=O)(=O)Nc6ncnc(OC)c6OC)cc5)c5cc(Br)ccc54)CC3)cc21,,,78.12 µg/mL
OC(Cn1cncn1)(Cn1cncn1)c1ccc(F)cc1F,SC5314,broth dilution,>100 µg/mL
COc1cccc(-c2cc(-c3cc4cc(F)ccc4oc3=O)nc(NS(=O)(=O)c3ccccc3)c2C#N)c1,MTCC 227,turbidity,1000 µg/mL
CCN1C(CC(=O)Nc2ccc(C(C)C)cc2)C(=O)OC(C)(C)C1(C)C,SC5314,broth dilution,>25 µg/mL
COc1cc(NC(C)CCCNC(=O)CC(NC(=O)[C@@H](N)CCCCN)C(=O)O)c2nc(C(C)(C)C)ccc2c1,,broth dilution,>20 µg/mL
Cc1cccc(-c2cc(-c3cc4cc(F)ccc4oc3=O)nc(NS(=O)(=O)c3ccccc3)c2C#N)c1,MTCC 227,turbidity,1000 µg/mL
C[C@@H](c1ncncc1F)[C@](O)(Cn1cncn1)c1ccc(F)cc1F,2038 (FLU-R),,4 µg/mL
O=C1/C(=C/c2ccccc2[N+](=O)[O-])CCc2ccccc21,,,100 µg/mL
COc1cc(NC(C)CCCNC(=O)CCC(NC(=O)[C@H](N)CCCCN)C(=O)O)c2nc(C(C)(C)C)ccc2c1,,broth dilution,>20 µg/mL
CC(C)c1ccc(NC(=O)CC2C(=O)OC(C)(C)CN2C)cc1,SC5314,broth dilution,>25 µg/mL
CN1C(=O)CS/C1=N\NC(=O)Cc1csc2nc(-c3ccc(Br)cc3)cn12,ATCC 10231,,32 µg/mL

The first 6 rows once more:

compound | strain | read by | result
COC(=O)[C@@]1(C)CCC[C@]2(C)C3CC(=O)O[C@@]3(C)C=C[C@@H]12 | CECT 1394 |  | >100 µg/mL
CCN1CC(C)(C)OC(=O)C1CC(=O)NCC1CCCCC1 | SC5314 | broth dilution | >25 µg/mL
Cc1ccccc1NC(=S)NNC(=O)c1cc2ccccc2cn1 | ATCC 10231 | agar | 50 µg/mL
CC1=C[C@H](OC(=O)c2ccc(O)cc2)C2[C@](C)(CC[C@@]2(O)C(C)C)CC1=O | SC5314 |  | >50 µg/mL
N#Cc1c(-c2ccc(O)cc2)cc(-c2cc3cc(F)ccc3oc2=O)nc1NS(=O)(=O)c1ccccc1 | MTCC 227 | turbidity | 250 µg/mL
O=C(NNC(=S)Nc1ccc(F)cc1)c1cc2ccccc2[nH]1 | ATCC 90028 | agar | >400 µg/mL